Pooled drug test results. Numbers come from NIAID ChemDB, via PubChem.

Common to all: whole-cell or culture tests; organism: HIV-1; method: p24; endpoint: EC50

An empty or dashed field is not shown. Lines come from different laboratories, so protocols vary. Two numbers with a dash give a range or band. ECn: concentration that inhibits the pathogen or its effect by n%.

Nc1nccc2c1ncn2[C@@H]1O[C@H](CO)[C@@H](O)[C@H]1O ; cells: PBMC ; strain or isolate: A018 POST-AZT ; value: 0.683 µM
Cc1occc1C(=O)NC(C)(C)C(=O)N[C@@]12CC[C@]3(C)[C@H](CC[C@@H]4[C@@]5(C)CC[C@H](OC(=O)C6C[C@@H](C(=O)O)C6(C)C)C(C)(C)[C@@H]5CC[C@]43C)C1=C(C(C)C)C(=O)C2 ; cells: MT-4 ; strain or isolate: NL4-3 ; value: 0.00501–0.01 µM
CC(C)[C@H](NC(=O)OCc1ccccn1)C(=O)N[C@@H](Cc1ccccc1)[C@@H](O)C[C@H](Cc1ccccc1)NC(=O)OCc1cccnc1 ; cells: MT-4 ; strain or isolate: NL4-3 ; changes: PR-L10R M46I L63P V82T ; value: <3 µM
Cc1ccc(C(=O)NC2(C(=O)N[C@@]34CC[C@]5(C)[C@H](CC[C@@H]6[C@@]7(C)CC[C@H](OC(=O)C8C[C@@H](C(=O)O)C8(C)C)C(C)(C)[C@@H]7CC[C@]65C)C3=C(C(C)C)C(=O)C4)CC2)cc1 ; cells: MT-4 ; strain or isolate: NL4-3 ; changes: V7A ; value: <0.01 µM
CCN1c2ncc(CCOc3ccc(-c4ccc(O)cc4)cc3C)cc2C(=O)N(C)c2cccnc21 ; cells: C8166 ; strain or isolate: IIIB ; value: <0.01 µM
CC(C)C1=C2[C@H]3CC[C@@H]4[C@@]5(C)CC[C@H](OC(=O)C6C[C@@H](C(=O)O)C6(C)C)C(C)(C)[C@@H]5CC[C@@]4(C)[C@]3(C)CC[C@@]2(NC(=O)C(C)(C)NC(=O)c2ncccn2)CC1=O ; cells: MT-4 ; strain or isolate: NL4-3 ; changes: V7A ; value: >0.05 µM
CC(=O)N[C@@H]1CCN(c2cc(C)nn3c(-c4ccco4)c(C)nc23)C1 ; cells: H9 ; value: 0.9 µM
C=CCN(C(=O)OCc1ccc([N+](=O)[O-])cc1)C1CCN(C[C@H]2CN(C(=O)C3CCCC3)C[C@]2(O)c2ccccc2)CC1 ; cells: PBMC ; strain or isolate: 20678 R5 CLADE B ; value: 0.0028 µM
O=C1c2c(O)c(=O)n(C3CCC(O)CC3)c(=O)n2CCN1Cc1ccc(F)cc1 ; cells: MT-4 ; value: <10 µM
CS(=O)c1ccc(-c2nc(-c3ccc(F)cc3)c(-c3ccncc3)[nH]2)cc1 ; cells: Mono Mac 6 ; strain or isolate: 89.6 ; value: >1 µM
CC(c1cccc2ccccc12)n1c(=O)c(O)c2n(c1=O)CCN(Cc1ccc(F)cc1)C2=O ; cells: MT-4 ; value: <10 µM
O=C(c1ccccc1)N(CCc1ccccc1)C[C@H](O)CN(CC1CCCC1)S(=O)(=O)c1nc2ccccc2[nH]1 ; cells: CEM ; strain or isolate: IIIB ; value: <1 µM
Cc1cn([C@H]2C=C[C@@H](CO)O2)c(=O)[nH]c1=O ; cells: MT-4 ; strain or isolate: XM-ABC-resistant ; changes: RT-K65R L74V M184V Y115F ; value: <0.8 µM
CC(C)CN(CCC(O)CN1CCN(Cc2cccnc2)C[C@H]1C(=O)NC(C)(C)C)S(=O)(=O)c1ccccc1 ; cells: CEM ; strain or isolate: IIIB ; value: <1 µM
CCN1c2ncc(CCOc3ccc(C(=O)Nc4ccc[n+]([O-])c4)cc3C)cc2C(=O)Nc2c(C)ccnc21 ; cells: C8166 ; strain or isolate: IIIB ; value: <0.01 µM
CCN1c2ncc(CCOc3ccc(C(=O)O)c4c3CCC4)cc2C(=O)N(C)c2cccnc21 ; cells: C8166 ; changes: RT-K103N Y181C ; value: <0.1 µM
COc1ccc(S(=O)(=O)N(CC(C)C)C[C@@H](O)CCN(CC2CCCC2)S(=O)(=O)Cc2csc(C(C)C)n2)cc1 ; cells: CEM ; strain or isolate: IIIB ; value: <1 µM
O=C1c2c(O)c(=O)n([C@@H]3CCCC[C@@H]3O)c(=O)n2CCN1Cc1ccc(F)cc1 ; cells: MT-4 ; value: <10 µM
CC(C)CN(C[C@@H](O)[C@H](Cc1ccccc1)NC(=O)O[C@H]1CO[C@H]2OCC[C@H]21)S(=O)(=O)c1ccc2c(c1)OCO2 ; cells: MT-4 ; strain or isolate: NL4-3 (SQV5) ; changes: L10I/G48V/I54V/L63P/A71V/G73S/V82T ; value: 0.006 µM
CCN1c2ncc(CCOc3ccc(CC(=O)NN)c4ccccc34)cc2C(=O)N(C)c2cccnc21 ; cells: C8166 ; strain or isolate: WT ; value: <0.1 µM
COc1ccc(-c2c(C)nc3c(N4CCCC4)cc(C)nn23)cc1OC ; cells: H9 ; value: 0.05 µM
Cc1ccc(C)n1-c1ccc(C(=O)O)c(O)c1 ; cells: MT-2 ; strain or isolate: SF2 X4R5 CLADE B ; value: 1.86 µM
O=C1c2c(O)c(=O)n(CCc3cccs3)c(=O)n2CCN1Cc1ccc(F)cc1 ; cells: MT-4 ; value: <10 µM
Cc1ccc(CNC(=O)c2nc3n(c(=O)c2O)CCNCC3N(C)C(=O)C(=O)N(C)C)cc1Cl ; cells: MT-4 ; value: <1 µM
CCN1c2ncc(CCOc3ccc(NC(=O)CCC(=O)O)cc3C)cc2C(=O)N(C)c2cccnc21 ; cells: C8166 ; changes: RT-K103N Y181C ; value: >0.05 µM
CC(=O)N[C@@H]1CCN(c2cc(C)nn3c(-c4ccc(F)cc4)c(C)nc23)C1 ; cells: H9 ; value: 2 µM
Nc1nccc2c1ncn2[C@@H]1C=C(CO)[C@@H](O)[C@H]1O ; cells: PBMC ; strain or isolate: A018 PRE-AZT ; value: 0.0161 µM
COc1ccc(-c2c(C)nc3c(N4CCN(C(=O)OC(C)(C)C)C4)cc(C)nn23)cc1OC ; cells: H9 ; value: 0.9 µM
COc1ccc(S(=O)(=O)N(CC(C)C)C[C@@H](O)CCN(CC2CCCC2)S(=O)(=O)c2cc(C(C)(C)C)cc3[nH]cnc23)cc1 ; cells: CEM ; strain or isolate: IIIB ; value: <1 µM
CN(CC1c2nc(C(=O)NCc3ccc(F)cc3)c(O)c(=O)n2CCN1C)C(=O)CS(C)(=O)=O ; cells: MT-4 ; value: <50 µM
COc1ccc(S(=O)(=O)N(CC(C)C)C[C@@H](O)CCN(CC2CCCC2)S(=O)(=O)Cc2nc[nH]c2C)cc1 ; cells: CEM ; strain or isolate: IIIB ; value: <1 µM
O=C1c2c(O)c(=O)n(C3CCCCCC3)c(=O)n2CCN1Cc1ccc(F)cc1 ; cells: MT-4 ; value: <10 µM
CN1CCN(C(=O)CN2CCn3c(nc(C(=O)NCc4ccc(F)cc4)c(O)c3=O)C2(C)C)CC1 ; cells: MT-4 ; value: <1 µM
CCNC(=O)N1CCc2c(OCCc3cnc4c(c3)C(=O)N(C)c3cccnc3N4CC)ccc(C(=O)O)c2C1 ; cells: C8166 ; strain or isolate: WT ; value: 0.1–1 µM
CN1CCn2c(nc(C(=O)NCc3ccc(F)cc3)c(O)c2=O)C1(C)C ; cells: MT-4 ; value: <1 µM
CCN1c2ncc(CCOc3ccc(-c4ccc(C(C)C(=O)O)cc4)cc3C)cc2C(=O)N(C)c2cccnc21 ; cells: C8166 ; changes: RT-K103N Y181C ; value: 0.01–0.05 µM
Cc1ccc(-c2ccc3c(c2)C=C(C(=O)Nc2ccc(C[N+](C)(C)C4CCOCC4)cc2)CCC3)cc1 ; cells: PBMC ; strain or isolate: Du151 CLADE C ; value: <1 µM
COc1cccc(-c2c(C)nc3c(N4CC[C@@H](NC(C)=O)C4)cc(Cl)nn23)c1 ; cells: H9 ; value: >100 µM
CC(C)=CCOc1cc(NC(=S)c2ccoc2C)ccc1Cl ; cells: CEM + CEM-SS ; strain or isolate: NL4-3 ; changes: RT-Y188C ; value: 0.01 µM
CCN1c2ncc(CCOc3ccc(CC(C)C(=O)O)c4ccccc34)cc2C(=O)N(C)c2ccc(C)nc21 ; cells: C8166 ; changes: RT-K103N Y181C ; value: <0.1 µM
COc1ccc(-c2scc3c(N4CC[C@@H](NC(C)=O)C4)nc(Cl)nc23)cc1OC ; cells: H9 ; value: >100 µM
CCO[C@@H]1Cc2cc(C(F)(F)F)ccc2C1N1CCN(C2(C)CCN(C(=O)c3c(C)ncnc3C)CC2)C[C@@H]1C ; cells: PBMC ; strain or isolate: WPS-5 ; value: >1 µM
CCN1c2ncc(CCOc3ccc(C(=O)O)c4c3CCN(C(=O)OC(C)(C)C)C4)cc2C(=O)N(C)c2cccnc21 ; cells: C8166 ; changes: RT-K103N Y181C ; value: <0.1 µM
CC1(C)c2nc(C(=O)NCc3ccc(F)cc3)c(O)c(=O)n2CCN1CCc1ccccn1 ; cells: MT-4 ; value: <1 µM
CCN1c2ncc(CCOc3ccc(-c4ccc(C(O)C(=O)O)cc4)cc3C)cc2C(=O)N(C)c2cccnc21 ; cells: C8166 ; changes: RT-K103N Y181C ; value: 0.01–0.05 µM
Nc1nc(NC2CC2)c2ncn([C@H]3C=C[C@@H](CO)C3)c2n1 ; cells: MT-4 ; strain or isolate: XM-T69SSS ; changes: RT-T69SSS L210W T215Y ; value: <32 µM
CCN1c2ncc(CCOc3ccc(CC(=O)O)c4ccccc34)cc2C(=O)N(C)c2ccc(Cl)nc21 ; cells: C8166 ; changes: RT-K103N Y181C ; value: <0.1 µM
CC(C)C1=C2[C@H]3CC[C@@H]4[C@@]5(C)CC[C@H](OC(=O)C6C[C@@H](C(=O)O)C6(C)C)C(C)(C)[C@@H]5CC[C@@]4(C)[C@]3(C)CC[C@@]2(NC(=O)C(C)(C)NC(=O)c2ccc(Cl)cc2)CC1=O ; cells: MT-4 ; strain or isolate: NL4-3 ; value: <0.005 µM
CC(C)CN(CC(O)CCN1CCN(Cc2cccnc2)C[C@H]1C(=O)NC(C)(C)C)S(=O)(=O)c1ccccc1 ; cells: CEM ; strain or isolate: IIIB ; value: <1 µM
O=C(NCc1ccc(F)cc1)c1nc2n(c(=O)c1O)C(=O)N(Cc1ccccc1)CC2 ; cells: MT-4 ; value: <50 µM
Clc1cc(CN2CCCNCCNCCCNCC2)cc(Cl)n1 ; cells: U87-CD4-CCR5 + U87 ; strain or isolate: BAL R5 ; value: 17.6 µM
CCN1c2ncc(CCOc3ccc(NC(=O)c4ccc(C(=O)O)cn4)cc3C)cc2C(=O)N(C)c2cccnc21 ; cells: C8166 ; changes: RT-K103N Y181C ; value: >0.05 µM
COc1ccc(-c2c(C)nc3c(N4CC[C@@H](OC(C)=O)C4)cc(C)nn23)cc1OC ; cells: H9 ; value: 0.4 µM

Repeating the final 4 entries:

compound,cells,strain or isolate,changes,value
O=C(NCc1ccc(F)cc1)c1nc2n(c(=O)c1O)C(=O)N(Cc1ccccc1)CC2,MT-4,,,<50 µM
Clc1cc(CN2CCCNCCNCCCNCC2)cc(Cl)n1,U87-CD4-CCR5 + U87,BAL R5,,17.6 µM
CCN1c2ncc(CCOc3ccc(NC(=O)c4ccc(C(=O)O)cn4)cc3C)cc2C(=O)N(C)c2cccnc21,C8166,,RT-K103N Y181C,>0.05 µM
COc1ccc(-c2c(C)nc3c(N4CC[C@@H](OC(C)=O)C4)cc(C)nn23)cc1OC,H9,,,0.4 µM